Measurements from PMC3172200 (PLoS Biology, 2011).

Target: staphylococcal enterotoxin B (SEB), Lot 1430 (Staphylococcus aureus, UniProt P01552 28-266)
Assay: SPR

| Binder | binding result |
| --- | --- |
| CHVKGKHLCPC [p1TA (HVKGKHLCP; CD28 116-124), form for SPR] | binds |
| CSPMLVAYDC [p2TA (SPMLVAYD; CD28 8-15), form for SPR] | binds |
